## DMS reactivity of the HIV-1 5' RNA in monomer and dimer

The measurements come from Ye et al. 2022 (doi:10.1038/s41594-022-00746-2).

Sequence of the HIV-1 NL4-3 5' RNA, positions 1 to 437, as numbered in the source:
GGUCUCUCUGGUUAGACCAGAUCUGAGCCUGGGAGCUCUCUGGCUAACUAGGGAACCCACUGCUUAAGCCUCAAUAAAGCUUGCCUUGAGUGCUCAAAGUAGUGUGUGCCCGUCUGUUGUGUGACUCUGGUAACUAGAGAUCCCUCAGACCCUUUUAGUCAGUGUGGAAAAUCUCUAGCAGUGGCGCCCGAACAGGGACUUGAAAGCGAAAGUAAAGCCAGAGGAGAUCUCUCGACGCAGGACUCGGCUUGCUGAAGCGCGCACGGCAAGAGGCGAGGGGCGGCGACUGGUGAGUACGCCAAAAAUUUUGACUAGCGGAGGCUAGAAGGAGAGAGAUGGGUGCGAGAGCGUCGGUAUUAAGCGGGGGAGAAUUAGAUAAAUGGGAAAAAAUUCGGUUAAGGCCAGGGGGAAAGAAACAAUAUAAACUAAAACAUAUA

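Randomly mutated transcripts starting with one, two or three G (1G, 2G, 3G), capped or uncapped, were folded for 30 min at 37 °C. Monomer and dimer bands were cut from native gels after folding in high salt (300 mM KCl, 5 mM MgCl2) or low salt (40 mM KCl, 0.1 mM MgCl2). Each band was probed in the gel with DMS (170 mM, 15 min, 37 °C), with ethanol as control, and sequenced.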

Scale: normalised reactivity, A and C only; low values point to paired or protected bases, higher values to unpaired ones.
One numbering serves 1G, 2G and 3G.
A position is written with its base.

position | domain | 1G capped high-salt dimer | 1G capped high-salt monomer
C151 | PBS | 0.74 | 0.79
C152 | PBS | 0.89 | 0.85
A157 | PBS | 0.99 | 0.93
C160 | PBS | 0.05 | 0.05
A161 | PBS | 0.48 | 0.49
A168 | PBS | 0.43 | 0.44
A169 | PBS | 0.67 | 0.72
A170 | PBS | 0.56 | 0.56
A171 | PBS | 0.49 | 0.47
C173 | PBS | 0.04 | 0.04
C175 | PBS | 0.04 | 0.04
A177 | PBS | 0.24 | 0.25
C179 | PBS | 0.83 | 0.76
A180 | PBS | 0.61 | 0.54
C185 | PBS | 0.45 | 0.43
C187 | PBS | 0.04 | 0.04
C188 | PBS | 0.09 | 0.07
C189 | PBS | 0.14 | 0.11
A191 | PBS | 0.42 | 0.41
A192 | PBS | 0.73 | 0.81
C193 | PBS | 0.76 | 0.82
A194 | PBS | 0.88 | 1.00
A198 | PBS | 0.62 | 0.59
C199 | PBS | 0.51 | 0.48
A203 | PBS | 0.53 | 0.51
A204 | PBS | 0.75 | 0.69
A205 | PBS | 0.38 | 0.32
C207 | PBS | 0.63 | 0.47
A209 | PBS | 0.43 | 0.48
A210 | PBS | 0.51 | 0.59
A211 | PBS | 0.51 | 0.41
A214 | PBS | 0.31 | 0.26
A215 | PBS | 0.70 | 0.52
A216 | PBS | 0.70 | 0.52
C218 | antiPAS | 0.06 | 0.04
C219 | antiPAS | 0.05 | 0.04
A220 | antiPAS | 0.22 | 0.35
A222 | antiPAS | 0.30 | 0.28
A225 | none | 0.82 | 0.78
A227 | CU | 0.22 | 0.25
C229 | CU | 0.15 | 0.21
C231 | CU | 0.12 | 0.14
C233 | CU | 0.15 | 0.26
A235 | none | 0.79 | 0.71
C236 | none | 0.43 | 0.53
C238 | none | 0.46 | 0.69
A239 | none | 0.77 | 0.58
A242 | none | 1.11 | 0.92
C243 | SL1 | 0.04 | 0.06
C245 | SL1 | 0.06 | 0.19
C248 | SL1 | 0.04 | 0.06
C252 | SL1 | 0.04 | 0.16
A255 | SL1 | 0.55 | 0.47
A256 | SL1 | 1.13 | 0.86
C258 | SL1 | 0.22 | 0.36
C260 | SL1 | 0.34 | 0.50
C262 | SL1 | 0.22 | 0.41
A263 | SL1 | 0.91 | 0.22
C264 | SL1 | 0.19 | 0.39
C267 | SL1 | 0.07 | 0.19
A268 | SL1 | 0.18 | 0.33
A269 | SL1 | 0.26 | 0.53

A selection of 3 entries from above:

position,domain,1G capped high-salt dimer,1G capped high-salt monomer
C243,SL1,0.04,0.06
C207,PBS,0.63,0.47
C236,none,0.43,0.53